Measured values from several laboratories, pooled; numbers as filed in NIAID ChemDB.

Shared fields: tests in culture; agent: HIV-1; read by: luciferase / reporter gene; read-out: EC50

Two numbers with a dash give a range or band. ECn: concentration that inhibits the pathogen or its effect by n%. An empty or dashed field is not shown. Rows are shuffled and stem from different studies.

SMILES,cells,strain or isolate,result
COC(=O)N1CCC2(CC1)OCCCn1c2nc(C(=O)NCc2ccc(F)cc2-n2ncnc2C)c(O)c1=O,MT-2,NL4-3,0.001–0.01 µM
COC(C(=O)O)c1c(C)nc2ccc(Cl)cc2c1-c1ccc2ccn(C)c2c1,C8166,-,<20 µM
Cc1nn(C)c2ncc(C(=O)C(=O)N3CCN(C(=O)c4ccccc4)CC3C)c(Cl)c12,HeLa,-,>5 µM
COc1ccc2nc(C(=O)C(=O)N3CCN(C(=O)c4ccccc4)CC3C)ccc2c1,HeLa,-,<1 µM
Cc1ncnn1-c1cc(F)ccc1CNC(=O)c1nc2n(c(=O)c1O)CCCOC21CCN(S(=O)(=O)N(C)C)CC1,MT-2,NL4-3,0.001–0.01 µM
COc1ccc(-c2n[nH]c(C)n2)c2[nH]cc(C(=O)N3CCN(C(=O)c4ccccc4)CC3)c12,HeLa,-,1–5 µM
CCCC(C(=O)O)c1c(C)nc2ccc(Cl)cc2c1-c1ccc(C2CC2)cc1,C8166,-,<20 µM
Cc1ncnn1-c1cc(F)ccc1CNC(=O)c1nc2n(c(=O)c1O)CCCOC21CCN(C(=O)C(=O)N(C)C)CC1,MT-2,NL4-3,≥0.1 µM
O=C(C(=O)N1CCN(C(=O)c2ccccc2)CC1)c1cc2ccccc2cn1,HeLa,-,<1 µM
Cc1nc2ccc(Cl)cc2c(-c2ccc3c(c2)OCCO3)c1C(OC(C)C)C(=O)O,C8166,-,<20 µM
C[C@@H]1CN(C(=O)c2ccccc2)CCN1C(=O)C(=O)c1cc2ccccc2[nH]1,HeLa,-,<1 µM
Cc1nc2ccc(Cl)cc2c(-c2ccccc2)c1C(OC(C)C)C(=O)O,C8166,-,<20 µM
O=C(C(=O)N1CCN(C(=O)c2ccccc2)CC1)c1ccc2cnccc2n1,HeLa,-,<1 µM
CNC(C(=O)Nc1cccc2c(C(=O)C(=O)N3CCN(C(=O)c4ccccc4)C[C@H]3C)c[nH]c12)C(O)C(=O)O,HeLa,-,<1 µM
COC(C(=O)O)c1c(C)nc2ccc(Br)cc2c1-c1ccc(Cl)cc1,C8166,-,<20 µM
CNC(=O)c1ccc(F)c2c(C(=O)CN3CCN(C(=O)c4ccccc4)CC3)c[nH]c12,HeLa,-,1–5 µM
C[C@@H]1CN(C(=O)c2ccccc2)CCN1C(C#N)C(=O)c1ccc2ccccc2n1,HeLa,-,<1 µM
Cc1ncnn1-c1cc(F)ccc1CNC(=O)c1nc2n(c(=O)c1O)CCOC21CCN(C(=O)C(=O)N(C)C)CC1,MT-2,NL4-3,≥0.1 µM
CCOc1ccc(-c2c(C(OC(C)C)C(=O)O)c(C)nc3ccc(Cl)cc23)cc1F,C8166,-,<20 µM
N#CC(=C1CCN(C(=O)C(=O)c2c[nH]c3c(NC(=O)Nc4ccccc4C(=O)O)cccc23)CC1)c1ccccc1,HeLa,-,<1 µM
CC1CN(C(=O)c2ccccc2)CCN1C(=O)C(=O)c1c[nH]c2ccc(OC(F)(F)F)cc2c1=O,HeLa,-,>0.5 µM
C=CCC(C(=O)O)c1c(C)nc2ccc(Br)cc2c1-c1ccc(Cl)cc1,C8166,-,<20 µM
O=C(O)CCCNC(=O)Nc1ccc(F)c2c(C(=O)C(=O)N3CCN(C(=O)c4ccccc4)CC3)c[nH]c12,HeLa,-,<1 µM
O=C(C(=O)N1CCN(C(=O)c2ccccc2)CC1)c1ccc2ccccc2c1,HeLa,-,<1 µM
Cc1ccc(F)cc1S(=O)(=O)N1CCC2(CC1)OCCn1c2nc(C(=O)NCc2ccc(F)cc2)c(O)c1=O,MT-2,NL4-3,0.001–0.01 µM
COc1ccc2cc(C(=O)C(=O)N3CCN(C(=O)c4ccccc4)CC3C)[nH]c2c1,HeLa,-,<1 µM
C[C@H]1CN(C(=O)c2ccccc2)CCN1C(=O)C(=O)c1ccc2ccccc2n1,HeLa,-,<1 µM
CCOC(=O)CCCNC(=O)Nc1ccc(F)c2c(C(=O)C(=O)N3CCN(C(=O)c4ccccc4)CC3)c[nH]c12,HeLa,-,<1 µM
CN(C)S(=O)(=O)N1CCC2(CC1)OCCn1c2nc(C(=O)NCc2ccc(F)cc2-n2cncn2)c(O)c1=O,MT-2,NL4-3,0.001–0.01 µM
C[C@@H]1CN(C(=O)c2ccccc2)CCN1C(=O)C(=O)c1c[nH]c2c(NC(=O)CN(C)C)cccc12,HeLa,-,<1 µM
Cc1ncnn1-c1cc(F)ccc1CNC(=O)c1nc2n(c(=O)c1O)CCOC21CCN(C(=O)C(=O)N(C)C)C1,MT-2,NL4-3,≥0.1 µM
CC1CN(C(=O)c2ccccc2)CCN1C(=O)C(=O)c1cc2cc(Cl)ccc2[nH]1,HeLa,-,<1 µM
CC1CN(S(=O)(=O)c2cc(F)ccc2CNC(=O)c2nc3n(c(=O)c2O)CCCOC32CCN(C(=O)OCc3ccccc3)CC2)CC(C)N1,MT-2,NL4-3,0.01–0.1 µM
CC1CN(C(=O)c2ccccc2)CCN1C(C#N)C(=O)c1c[nH]c2ccc(OC(F)(F)F)cc2c1=O,HeLa,-,<1 µM
Cc1nc2ccc(Br)cc2c(-c2ccc(Cl)cc2)c1C(OC1CCCC1)C(=O)O,C8166,-,<20 µM
CN(C)S(=O)(=O)N1CCC2(CC1)OCCn1c2nc(C(=O)NCc2ccc(F)cc2)c(O)c1=O,MT-2,NL4-3,0.001–0.01 µM

A second listing of 4 rows from above:

O=C(C(=O)N1CCN(C(=O)c2ccccc2)CC1)c1ccc2cnccc2n1 ; cells: HeLa ; result: <1 µM
CCOC(=O)CCCNC(=O)Nc1ccc(F)c2c(C(=O)C(=O)N3CCN(C(=O)c4ccccc4)CC3)c[nH]c12 ; cells: HeLa ; result: <1 µM
COc1ccc2nc(C(=O)C(=O)N3CCN(C(=O)c4ccccc4)CC3C)ccc2c1 ; cells: HeLa ; result: <1 µM
CN(C)S(=O)(=O)N1CCC2(CC1)OCCn1c2nc(C(=O)NCc2ccc(F)cc2)c(O)c1=O ; cells: MT-2 ; strain or isolate: NL4-3 ; result: 0.001–0.01 µM